Results on two molecules are retold here after US4347182A, “Preparation of penicillanic acid derivatives” (dated 1982).

Protein sequences, listed by entry. Tags and fused reporters are not part of them. Residues count along the entry.
UniProt P05364, 21-381 limits assumed: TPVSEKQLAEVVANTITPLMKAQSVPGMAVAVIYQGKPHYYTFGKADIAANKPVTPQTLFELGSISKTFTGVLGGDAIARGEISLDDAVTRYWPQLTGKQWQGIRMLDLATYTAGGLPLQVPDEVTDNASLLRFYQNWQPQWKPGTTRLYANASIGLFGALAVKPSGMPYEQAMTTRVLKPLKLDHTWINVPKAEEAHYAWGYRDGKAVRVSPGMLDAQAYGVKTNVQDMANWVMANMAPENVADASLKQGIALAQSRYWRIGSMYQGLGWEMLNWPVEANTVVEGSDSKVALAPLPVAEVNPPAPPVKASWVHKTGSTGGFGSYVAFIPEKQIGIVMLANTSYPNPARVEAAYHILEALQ
UniProt P62593, 24-286 limits assumed: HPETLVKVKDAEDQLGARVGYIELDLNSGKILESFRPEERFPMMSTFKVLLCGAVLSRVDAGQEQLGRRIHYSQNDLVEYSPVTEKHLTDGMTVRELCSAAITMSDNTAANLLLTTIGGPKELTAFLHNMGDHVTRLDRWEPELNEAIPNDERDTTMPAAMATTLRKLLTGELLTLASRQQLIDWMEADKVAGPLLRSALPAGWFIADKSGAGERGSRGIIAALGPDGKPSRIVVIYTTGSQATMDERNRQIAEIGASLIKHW
UniProt P00807, 25-281 limits assumed: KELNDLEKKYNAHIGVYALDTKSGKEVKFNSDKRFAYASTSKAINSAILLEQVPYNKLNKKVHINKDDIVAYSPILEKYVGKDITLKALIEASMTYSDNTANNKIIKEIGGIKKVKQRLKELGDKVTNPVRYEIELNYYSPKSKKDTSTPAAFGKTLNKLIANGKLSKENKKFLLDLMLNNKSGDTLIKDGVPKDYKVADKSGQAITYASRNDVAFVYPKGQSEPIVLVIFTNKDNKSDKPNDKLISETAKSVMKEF

For one experiment, the system named is E. coli J T 39. In words: MIC of ampicillin in the presence of the inhibitor.
The next experiment relates to Klebsiella aerogenes E70. Description: MIC of ampicillin in the presence of the inhibitor. The conditions noted are these: inhibitor conc. 5 μg/ml.
In another experiment the test system is Proteus sp. C889. Description: MIC of ampicillin in the presence of the inhibitor. The conditions noted are these: inhibitor conc. 5 μg/ml.
Another experiment concerns Staph. aureus Russell. In words: MIC of ampicillin in the presence of the inhibitor. The conditions noted are these: inhibitor conc. 20 μg/ml.
For experiment [1], the target named is Enterobacter P 99 β-lactamase (Enterobacter cloacae, UniProt P05364). In words: β-lactamase inhibition, chromogenic cephalosporin as substrate, cell-free enzyme preparation. Conditions: 50 μg/ml of inhibitor, pre-incubation.
The target in experiment [2] is Escherichia coli JT 4 β-lactamase (Escherichia coli, UniProt P62593). The experiment is described as above. Conditions: 50 μg/ml of inhibitor, pre-incubation.
Experiment [3] has as its system Klebsiella aerogenes E 70 β-lactamase. Described as above. Conditions: pre-incubation of enzyme with inhibitor.
For experiment [4], the target named is Staphylococcus Russell β-lactamase (Staphylococcus aureus, UniProt P00807). The description is as above. The conditions noted are these: read-out: concentration of inhibitor required to produce 50% inhibition of hydrolysis, pre-incubation of enzyme with inhibitor.
For the next experiment, the system named is β-lactamase. The conditions noted are these: Cartwright et al., Nature 278, 1979, page 360; cited from earlier work.

Regarding `CC1(C)S[C@@H]2[C@H](Cl)C(=O)N2[C@H]1C(=O)O`, the “MIC of Ampicillin” value came out at 500 µg/mL with E. coli J T 39 (inhibitor conc. 5 μg/ml); 500 µg/mL in the experiment on E. coli J T 39 (inhibitor conc. 20 μg/ml); 25 µg/mL with Klebsiella aerogenes E70; 500 µg/mL in the experiment on Proteus sp. C889; 0.1 µg/mL in the experiment on Staph. aureus Russell. The inhibition of hydrolysis in [1] was 31%; in experiment [2], “approximately 42%”. The “concentration of inhibitor required to produce 50% inhibition of hydrolysis” value in experiment [3] came to 6.5 µg/mL. The IC50 in [4] worked out at 1270 nM.

Turning to `CC1(C)S[C@@H]2[C@@H](Cl)C(=O)N2[C@H]1C(=O)O`, the “inhibitor of β-lactamase” value in the experiment on β-lactamase is reported as “not an inhibitor of β-lactamase”.
